For one molecule, ELISA (OD450) results are on record in patent US20050170334A1.

Among the targets are M16 (influenza A virus); NM16 (influenza A virus); M15 (influenza A virus); NM17 (influenza A virus); NM15 (influenza A virus).
Test in all cases: ELISA, peptide coated, antibody 10 µg/ml

B1: N547 (antibody, V domains shown)
VH: EVQLVESGGGLVKPGGSLRLSCAASGFTFSNALMSWVRQAPGKGLEWVGRIKSKTNGGTTDYAAPVKGRFTISRDDSKNTLYLQMNSLKTEDTAVYYCTTHLRYFDWLSDYWGQGTLVTVSS
VL: QSVLTQPPSMSAAPGQKVTISCSGSSSNIGNNYISWYQQLPGTAPKVLIYDNNKRPSGIPDRFSGSKSGTSATLGITGLQTGDEADYYCGSWDSSLSAGVFGTGTKVTVLG
As for B1, the ELISA (OD450) with M16 (influenza A virus) was 0.68 OD450; with NM16 (influenza A virus) it was 1.13 OD450; in the test with M15 (influenza A virus), 0.07 OD450; in the test with NM17 (influenza A virus), 1.04 OD450; in the test with NM15 (influenza A virus) it was 0.09 OD450.
